This is a selection; strong and weak results do not stand in their true shares. Activity calls are given as the source filed them. Cut-off read from the data, not from the text of the source: active = inhibition mostly above about 10% (no sharp cut-off); inactive = mostly below about 6.7%.

By UniProt entry, the sequences of proteins in these tests, tags left out.
UniProt Q9QR71, whole entry: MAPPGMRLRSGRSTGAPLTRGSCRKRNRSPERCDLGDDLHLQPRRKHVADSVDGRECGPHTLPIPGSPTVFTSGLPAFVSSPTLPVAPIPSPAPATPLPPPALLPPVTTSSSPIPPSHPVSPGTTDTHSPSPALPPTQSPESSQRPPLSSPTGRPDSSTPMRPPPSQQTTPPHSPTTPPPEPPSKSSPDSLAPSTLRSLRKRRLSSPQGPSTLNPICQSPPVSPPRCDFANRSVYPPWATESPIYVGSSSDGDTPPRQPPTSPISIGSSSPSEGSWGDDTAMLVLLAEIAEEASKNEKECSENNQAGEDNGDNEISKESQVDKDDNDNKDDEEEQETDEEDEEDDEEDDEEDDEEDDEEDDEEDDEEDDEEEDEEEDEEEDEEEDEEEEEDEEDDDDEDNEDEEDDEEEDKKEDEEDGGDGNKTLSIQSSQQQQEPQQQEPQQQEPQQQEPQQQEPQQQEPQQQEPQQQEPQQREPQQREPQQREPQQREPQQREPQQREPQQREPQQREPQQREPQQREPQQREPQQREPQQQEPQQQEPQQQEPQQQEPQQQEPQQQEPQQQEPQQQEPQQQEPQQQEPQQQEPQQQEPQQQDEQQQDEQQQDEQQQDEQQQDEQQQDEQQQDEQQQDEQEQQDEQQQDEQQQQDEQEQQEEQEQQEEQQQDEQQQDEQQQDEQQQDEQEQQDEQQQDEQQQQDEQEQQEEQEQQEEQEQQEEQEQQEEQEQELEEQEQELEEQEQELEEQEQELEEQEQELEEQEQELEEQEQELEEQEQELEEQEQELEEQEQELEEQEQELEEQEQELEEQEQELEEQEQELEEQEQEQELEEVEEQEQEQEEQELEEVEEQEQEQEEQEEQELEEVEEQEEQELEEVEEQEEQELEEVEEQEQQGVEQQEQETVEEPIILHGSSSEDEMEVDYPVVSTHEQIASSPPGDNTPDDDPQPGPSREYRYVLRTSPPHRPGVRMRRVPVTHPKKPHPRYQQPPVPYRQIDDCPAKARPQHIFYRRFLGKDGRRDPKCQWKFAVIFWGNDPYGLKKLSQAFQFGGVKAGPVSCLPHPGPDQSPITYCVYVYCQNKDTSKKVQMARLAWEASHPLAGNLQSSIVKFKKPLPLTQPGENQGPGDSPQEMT

For the experiment, the target named is Protein LANA1 (Human herpesvirus 8 type P (isolate GK18)) (UniProt Q9QR71). Kind of experiment: blockers of LANA interaction with H2A/H2B – biochemical, FP readout, HTS, primary screen (AID 2629). Particulars: cell-free LANA-H2A/H2B peptide, fluorescence polarization; active compounds read high; concentration not given here. A general note: Fluorescence polarisation rises when a labelled molecule tumbles more slowly, as on binding a larger partner.
As usually defined, the inhibition is the change of the read-out against control, counted positive when it falls. Turning to `Oc1ccccc1CNc1ccccn1`, the inhibition is inactive: 1.08%. Regarding `O=C(NC(Sc1ccncn1)C(Cl)(Cl)Cl)c1ccccc1` (configuration not stated), the inhibition was inactive: -4.49%. As to `Cc1c2non([O-])c-2c(C)[n+](=O)[n+]1[O-]`, the inhibition was inactive: -1.8%. As for `Nc1cc(N)c2nonc2c1[N+](=O)[O-]`, the inhibition was inactive: -4.61%. With `Cc1c(NP(C)(=O)Oc2ccc(C(C)C)cc2)c(=O)n(-c2ccccc2)n1C` (configuration not stated), the inhibition was inactive: 1.37%. As for `O=[N+]([O-])c1cc([N+](=O)[O-])c(Nc2ccccn2)c([N+](=O)[O-])c1`, the inhibition was inactive: 5.11%. As to `CC(C)CC(=O)NC(Sc1ccc(Cl)cc1)C(Cl)(Cl)Cl` (configuration not stated), the inhibition was inactive: -4.12%.

Take `CCc1ccc(OP(C)(=O)O)cc1`: the inhibition is inactive: -1.11%. As for `CP(=O)(Nc1ccccn1)Oc1ccccc1` (configuration not stated), the inhibition was inactive: -0.603%. For `COc1ccccc1OP(C)(=O)Nc1ccc(C)cc1C` (configuration not stated), the inhibition was inactive: -2.77%.

As for `O=P(Nc1nc2ccc(Cl)cc2s1)(c1ccccc1)c1ccccc1`, the inhibition was inactive: -2.48%.

Regarding `Cc1cc(C)cc(OP(C)(=O)Nc2cccc(C(F)(F)F)c2)c1` (configuration not stated), the inhibition was inactive: 1.3%. `CC(=O)Nc1ccc([As](=O)(O)O)cc1`: the inhibition was inactive: 2.64%.

`O=C(O)c1ccccc1[As](=O)(O)O`: the inhibition was inactive: 0.643%. In the case of `COc1ccc(OP(C)(=O)Nc2ccccc2Br)cc1` (configuration not stated), the inhibition is inactive: -0.905%. Turning to `Cc1cc(SC(NC(=O)c2ccc(F)cc2)C(Cl)(Cl)Cl)ncn1` (configuration not stated), the inhibition was inactive: 0.824%. On to `CCOP(=O)(Nc1ccccc1)OCC`, for which the inhibition is inactive: 3.54%. To `COc1ccccc1OP(C)(=O)Nc1ccc(C)c(C)c1` (configuration not stated) belongs inactive: 0.306%; to `CN(C(=O)Cc1ccc(Cl)c(Cl)c1)[C@H]1CCCC[C@@H]1N1CCCC1`, inactive: 3.6%.

As to `Cc1ccc(NP(=O)(Oc2ccccc2F)Oc2ccccc2F)nc1`, the inhibition was inactive: -0.148%. For the compound `O=[N+]([O-])c1cc([N+](=O)[O-])c(CCN2CCOCC2)c([N+](=O)[O-])c1`, the inhibition was inactive: 2.76%. To `Cc1nc2ccc3ccccc3c2o1.O=[N+]([O-])c1cc([N+](=O)[O-])c(O)c([N+](=O)[O-])c1` belongs inactive: -0.445%; to `Nc1cccc2ccc([As](=O)(O)O)cc12`, inactive: 4.61%; to `CP(=O)(Nc1ccc(Cl)cc1Cl)Oc1ccccc1` (configuration not stated), inactive: -0.598%. On to `CP(=O)(OCCOc1ccccc1)OCCOc1ccccc1`, for which the inhibition is inactive: 3.29%. Consider `CCN(N=Nc1nonc1N)c1nonc1N`, for which the inhibition was inactive: 1.11%. For the compound `Nc1ccc2c(ccc3cccnc32)n1.O=[N+]([O-])c1cc([N+](=O)[O-])c(O)c([N+](=O)[O-])c1`, the inhibition is inactive: -1.05%.
